Mtb glucose medium: 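Growth of Mycobacterium tuberculosis over 3 days (7H9 medium with glucose and tyloxapol); the read-out is not stated. Concentration: 50 µM. Direction is inferred from retests: higher values go with more growth inhibition. Of about 69,000 compounds tested this way, about 760 (1.1%) reached 50% or more in at least one test.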
Mtb cholesterol medium: 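Growth of Mycobacterium tuberculosis over 4 days (cholesterol / DPPC medium with tyloxapol); the read-out is not stated. Concentration: 50 µM. Higher reads as more growth inhibition (inferred: compounds with an IC50 in retests scored well above the rest). About 69,000 compounds were tested under these conditions; 0.54% (about 370) showed 50% or more at least once.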

Results are given as percent effect. The record does not define 0% and 100%; most values in the screen are far below 50% and negative numbers occur (in some assays of this library far below -100). This is part of a subset picked to be rich in strong results. Two or more numbers in one place are separate tests of the same structure; such repeats can differ widely. A dash means the value is not listed here; it may have been measured.

| structure | Mtb glucose medium | Mtb cholesterol medium |
|---|---|---|
| `CC(C)C(=O)Nc1cccc(C(=O)Nc2ccccn2)c1` | -17.87% & 8.144% | - |
| `C1CCC(CNC2CCCN(Cc3noc(C4CC4)n3)C2)C1` (centres unmarked) | 2.264% & -10.09% | -14.15% |
| `COCc1noc(-c2nn(-c3ccc(F)cc3)c3c2CCC3)n1` | 53.84% | - |
| `CN(C)[C@H]1CCN(c2nc(C(C)(C)C)nc3c2cnn3C)C1` | 57.17% | - |
| `COc1ccc(-n2cc(CNC(=O)c3ccccn3)nn2)cc1` | 65.28% & 1.168% | - |
| `CC(C)Cc1cc(NC(=O)c2cccnc2)n(C)n1` | 39.38% | - |
| `OCC(O)CSCc1cc(Cl)ccc1Cl` (centres unmarked) | 32.63% | 18.24% |
| `O=C(O)C(F)(F)F.O=C(O)C(F)(F)F.c1ccc(N2CC[C@H](OCC3CC3)[C@@H]2Cc2cccnc2)nc1` | - | 1.354% |
| `Cc1nn(C)c(C)c1C1CCCN1C(=O)c1ccc(N(C)C)nn1` (centres unmarked) | 4.675% | - |
| `CC(=O)N(c1ccc(C)cc1)c1nc(CN2CCCC(C)C2)cs1` (centres unmarked) | 33.14% | - |
| `Cc1ccc(S(=O)(=O)N2CCOc3ccccc32)cc1C(N)=O` | -26.08% | - |
| `O=C(c1cc(COc2ccc3c(c2)OCO3)[nH]n1)N1CCSCC1` | - | 50.54% & 52.12% |
| `c1ccc2c(c1)CCN(c1ncnc3sc4c(c13)CCNC4)C2` | 37.62% | 18.87% |
| `Cc1nc(C)n(CC2CCCN2CC(=O)Nc2nncs2)n1` (centres unmarked) | 52.95% | - |
| `Br.COc1ccc(OCCc2cc(C3CCN(CC(C)C)C3)n[nH]2)cc1` (centres unmarked) | - | 10.48% & 23.16% |
| `COc1ccc(C(C)NCCC(N)=O)cc1F` (centres unmarked) | -6.949% | -5.91% |
| `CN1CCOC(CNC(=O)Cc2ccccc2F)C1` (centres unmarked) | -6.099% | - |
| `CNC(=O)c1ncn2c1CN(CCC(C)C)S(=O)(=O)c1ccccc1-2` | - | -7.584% |
| `[H][C@@]12CCCO[C@]1([H])[C@H](NC(=O)CC1CC1)CN(Cc1ccc(OC)cc1)C2` | - | -7.998% |
| `COc1ccc(CNc2nc(C3CC3)nc3c(C)nn(C)c23)cc1` | 76.58% | - |
| `CC(C)Oc1ccc(C(=O)NCc2ccnc(N3CCCC3)c2)cn1` | 56.63% & 45.38% | 53.13% |
| `COc1ccc(C(=O)Nc2cccc(SC)c2)c(OC)n1` | - | -34.16% |
| `O=C(NCC1(O)COCCN(Cc2cccc(O)c2)C1)c1ccccn1` (centres unmarked) | 8.837% | - |
| `O=C(NCC(CO)Cc1ccc(Cl)cc1)c1ccncc1F` (centres unmarked) | 4.312% & -10.05% | - |
| `CC(NCc1ccc(F)cc1)c1ccc(OCC(=O)NC2CC2)cc1` (centres unmarked) | -47.86% | - |
| `CN(C)c1cc2c(nn1)CCN(C(=O)c1cc3ccccc3o1)C2` | - | -6.707% |
| `COc1cccc(CNc2cccnc2-n2cccn2)c1OC` | 17.31% & 16.59% | 14.19% |
| `COC(=O)CSCc1noc(-c2ccc(Cl)cc2)n1` | 60.14% & 56.09% | - |
| `CCCN(C(=O)c1cnccn1)c1nc2c(s1)CCc1c-2cnn1C` | 29.04% | - |
| `CN(C)[C@H]1C[C@@H](Cc2cc(-c3ccc(F)cc3)on2)C1(C)C` | 17.58% & 59.33% | - |
| `CC(C)[C@@H]1CN(Cc2ccccc2C#N)C[C@H]1N(C)C` | -33.58% | - |
| `Cl.O=c1c2sccc2nc2n1CCN(Cc1ccc(F)c(F)c1)CC2` | 55.36% | 58.12% |
| `c1ccc(C[C@H]2CN(Cc3nccs3)CC[C@H]2OCC2CC2)cc1` | 26.99% | - |
| `CCc1c(C)sc(NC(=O)CN2CCOCC2)c1C(=O)OC` | 35.31% | 15.87% |
| `CCN(C)C(=O)c1cnc(-c2noc3cc(N4CCCCC4)ccc23)s1` | -33.38% & -10.21% | - |
| `CC(CNC(=O)N1CCN(Cc2ccon2)CC1)Cc1cccs1` (centres unmarked) | -10.1% | - |
| `Cc1ccc(CN(CCCn2ccnc2)Cc2cccs2)s1.O=C(O)CC(O)(CC(=O)O)C(=O)O` | 65.26% | 25.49% |
| `CC(=O)N1CCCC1c1cccc(Cc2ccccc2F)n1` (centres unmarked) | 62.97% | - |
| `CCO[C@H]1CO[C@@]2(CCN(Cc3ccc4c(c3)OCO4)C2)C1.O=C(O)C(F)(F)F` | - | -3.024% |
| `O=C(O)CC(O)(CC(=O)O)C(=O)O.[H][C@@]12CC[C@@](O)(c3ccccn3)[C@]1([H])CN(Cc1cccc(Cl)c1Cl)C2` | 28.5% | - |
| `CCc1nc(NCc2ccccn2)c2c(n1)c(C)nn2C` | 0.9907% | 3.373% |
| `O=C(NCC1(O)COCCN(Cc2cccc(O)c2)C1)c1cnccn1` (centres unmarked) | 4.456% | - |
| `O=C(NCCNc1ncccn1)c1ccc(Br)cc1` | 32.21% | - |
| `Cn1ccc(-c2cc(C(=O)N3CCC(C(N)=O)CC3)c3ccccn23)n1` | 27.57% | - |
| `COc1ccccc1C(O)CNC(=O)Nc1ccccn1` (centres unmarked) | -4.672% | -4.393% |
| `CN(C)c1cc(C(=O)N2CCN(c3nccs3)CC2)ccn1` | 15.3% | - |
| `CO[C@@H]1CCN(c2nnc(C)s2)C[C@@H]1Cc1cccc(C)c1.O=C(O)C(F)(F)F` | 51.3% & 34.61% | 38.09% |
| `COc1cccc(CN2CCCC2c2c(C)nn(C)c2C)c1` (centres unmarked) | 68.63% | - |
| `O=C(Nc1cccnc1N1CCSCC1)c1ccc2c(c1)CCC2` | -0.7691% | 17.11% |
| `O=C(CCc1cccs1)N1CCC(N2CCNC2=O)CC1` | 10.12% | - |
| `Cc1ccc(S(=O)(=O)N2CCOc3ccccc32)cc1C(=O)O` | -36.04% | - |
| `COCCNc1nc2c(c(NCc3cnc(C)cn3)n1)CCNCC2` | 11.38% | - |

Some entries from above, unchanged:

- c1ccc(C[C@H]2CN(Cc3nccs3)CC[C@H]2OCC2CC2)cc1 : Mtb glucose medium: 26.99%
- CN(C)[C@H]1C[C@@H](Cc2cc(-c3ccc(F)cc3)on2)C1(C)C : Mtb glucose medium: 17.58% & 59.33%
- CC(=O)N1CCCC1c1cccc(Cc2ccccc2F)n1 (centres unmarked) : Mtb glucose medium: 62.97%
- CC(C)[C@@H]1CN(Cc2ccccc2C#N)C[C@H]1N(C)C : Mtb glucose medium: -33.58%
- O=C(NCCNc1ncccn1)c1ccc(Br)cc1 : Mtb glucose medium: 32.21%
- CCN(C)C(=O)c1cnc(-c2noc3cc(N4CCCCC4)ccc23)s1 : Mtb glucose medium: -33.38% & -10.21%
- O=C(O)C(F)(F)F.O=C(O)C(F)(F)F.c1ccc(N2CC[C@H](OCC3CC3)[C@@H]2Cc2cccnc2)nc1 : Mtb cholesterol medium: 1.354%

Data taken from ChEMBL document CHEMBL3988442, “University of Dundee, Small-Polar-MMV Screening Library” (2021).